Results from patent US7867716B2 (priority 2004, dated 2011).

Experiments:
αHL-(M113F/K147N)7·βCD = αHL-(M113F/K147N)7·βCD (Staphylococcus aureus, UniProt P09616, K173N/M139F)
αHL (M113N)7 pore [1] = molecular target: T1, αHL (M113N)7 pore (Staphylococcus aureus, UniProt P09616, M139N); details: for association rate constant kon / dissociation rate constant koff: n=3
WT1(M113N)6 pore = WT1(M113N)6 pore (Staphylococcus aureus, UniProt P09616, M139N)
αHL-(M113F/K147N)7 pore = αHL-(M113F/K147N)7 pore (Staphylococcus aureus, UniProt P09616, K173N/M139F)
αHL (M113N)7 pore [2] = molecular target: T1, αHL (M113N)7 pore; details: cited from earlier work
[3] = linear fit ln Kf versus 1/T, n=4

## O=C(O)C12CC3CC(CC(C3)C1)C2
αHL-(M113F/K147N)7·βCD; 22° C.
  Kf (Kf=kon/koff): 1.2±0.1×10^4 M^−1
αHL-(M113F/K147N)7·βCD; 22° C. to 78° C.
  increase of koff: 43 fold
  increase of kon: 6 fold
αHL-(M113F/K147N)7·βCD; 22° C., −60 mV, n=3
  kon: 2.5±0.2×10^6 M^−1 s^−1
αHL-(M113F/K147N)7·βCD; 25° C., n=3
  ΔG°: -5.5 ± 0.48 kcal/mol
αHL-(M113F/K147N)7·βCD; 78° C.
  Kf (Kf=kon/koff): 1.5±0.1×10^3 M^−1
αHL-(M113F/K147N)7·βCD; 78° C., −60 mV, n=3
  koff: 9.3±0.6×10^3 s^−1
  kon: 1.4±0.1×10^7 M^−1 s^−1
αHL-(M113F/K147N)7·βCD; plot of ln Kf versus 1/T, n=3
  ΔH°: -7.41 ± 0.48 kcal/mol
  ΔS°: −28±1 J mol^−1 K^−1

## β-cyclodextrin
αHL (M113N)7 pore [1]; 25° C.
  Kf relative to interaction of WT-αHL with βCD: > 10^4 fold
  formation constant Kf: 1.5e+07 M⁻¹
  association rate constant kon: 4.5±0.6×10^5 M^−1s^−1
  dissociation rate constant koff: 0.031 ± 0.01 s⁻¹
αHL (M113N)7 pore [1]; 25° C. (=7.7RT)
  ΔG^≠ for association: 4.54 kcal/mol
αHL (M113N)7 pore [1]; 25° C. (=24RT)
  ΔG^≠ for dissociation: 14.3 kcal/mol
αHL (M113N)7 pore [1]; 25° C., n=4
  ΔG°: -9.8 ± 0.72 kcal/mol
αHL (M113N)7 pore [1]; 31° C., −40 mV
  mean duration of βCD binding events, τoff: 14 s
αHL (M113N)7 pore [1]; 85° C. (=6.1RT)
  ΔG^≠ for association: 3.59 kcal/mol
αHL (M113N)7 pore [1]; 85° C. (=21RT)
  ΔG^≠ for dissociation: 12.7 kcal/mol
αHL (M113N)7 pore [1]; 85° C. vs 25° C.
  increase of koff over the value at 25° C.: 800 fold
  increase of kon over the value at 25° C.: 15 fold
αHL (M113N)7 pore [1]; 85° C.
  association rate constant kon: 6.5±0.8×10^6 M^−1 s^−1
  dissociation rate constant koff: 25.0±0.3 S^−1
αHL (M113N)7 pore [1]; [3]
  ΔH°: -14.3 ± 0.96 kcal/mol
  ΔS°: −62±5 J mol^−1 K^−1
αHL (M113N)7 pore [1]; φ=1 ns^−1
  ΔH^≠ for association: 9.32 kcal/mol
  ΔH^≠ for dissociation: 23.7 kcal/mol
  ΔS^≠ for association: 66 J mol^−1 K^−1
  ΔS^≠ for dissociation: 130 J mol^−1 K^−1
WT1(M113N)6 pore
  ΔG° (as printed, second quantity of the sentence): −33 kJ mol^−1 K^−1
  ΔH°: -12.2 ± 0.48 kcal/mol
WT1(M113N)6 pore; 25° C.
  ΔG°: -7.89 ± 0.48 kcal/mol
αHL-(M113F/K147N)7 pore; −40 mV, n=4
  Kf (trans): 1.3±0.2×10^5 M^−1
αHL-(M113F/K147N)7 pore; −60 mV, n=3, βCD from cis side
  τoff of βCD (cis): 7.0 ± 0.3 s
αHL (M113N)7 pore [2]; literature, different sequence background for αHL, RL2
  formation constant Kf (literature): 7.7e+06 M⁻¹
αHL (M113N)7 pore [2]; room temperature
  tighter binding of βCD by M113N mutant than by WT protein: > 10,000 fold

Read-outs that look alike come from different tables or passages of the source.
